Experimental findings from PubChem BioAssay AID1272365 (Small Molecule Screening Facility, UW Madison, 2020) are described below.

SMILES strings stand for the structures. Only a part is listed here, and it is no random draw. Active and inactive are the calls of the source. Cut-off read from the data, not from the text of the source: active = inhibition mostly above about 37% (no sharp cut-off); inactive = mostly below about 20%.

What is called inhibition is the drop in the measured response relative to a control, in per cent.

The test system of the experiment is PriA–SSB C-terminal tail interaction (Klebsiella pneumoniae). Description: inhibitors of Klebsiella pneumoniae PriA binding to SSB C-terminal tail, primary screen, biochemical, AlphaScreen (AID 1272365).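 Note: plate controls were negative control peptide for no effect and reference peptide for full effect.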 Particulars: AlphaScreen SSBct-PriA binding, biotinylated peptide; at 33 µM; active compounds read high.
In the case of `COc1cc(C(=O)NCC2(N3CCCCC3)CCCCC2)ccc1OC(F)F`, the inhibition was inactive: 6.9%. The result for `O=C(NCC1(N2CCOCC2)CCCCC1)c1cc(=O)[nH]c2ccccc12` reads inactive: -22.3%. With `CN1CCN(CCOC(=O)C(O)(c2ccccc2)c2ccccc2)CC1` the figure was inactive: 3.93%. The result for `COc1ccc(NC2CCN(C(=O)OC(C)(C)C)CC2)cc1` reads inactive: 7.48%. `CC(C)c1ccc(C(=O)NCC2(N3CCOCC3)CCCCC2)cc1`: the inhibition is inactive: 4.26%. For `O=C(NCC1(N2CCCCC2)CCCCC1)c1cccc(C(F)(F)F)c1`, the inhibition is inactive: -3.9%. The result for `N#CC1(Nc2ccccc2)CCN(CCc2ccccc2)CC1` reads inactive: 4.04%.

For the molecule `CCN1CCC(Nc2ccc(Cl)cc2)CC1`, the inhibition is inactive: -10.2%.

Regarding `CSc1ccc(C(=O)NCC2(N3CCOCC3)CCCCC2)cc1`, the inhibition was inactive: -6.28%. Consider `O=C(NCC1(N2CCCCC2)CCCCC1)c1cccc([N+](=O)[O-])c1`, for which the inhibition was inactive: -8.38%. In the case of `O=C(NCC1(N2CCCCC2)CCCCC1)c1ccc(OC(F)F)cc1`, the inhibition was inactive: -4.78%.

On to `CCCOc1ccc(C(=O)NCC2(N(C)C)CCCCC2)cc1OC`, for which the inhibition was inactive: -18.7%. Take `O=C(NCC1(N2CCCCC2)CCCCC1)c1cncc(Br)c1`: the inhibition was inactive: -10.6%. The result for `CN1CCC(Nc2cccc(F)c2)CC1` reads inactive: -10.4%; that for `O=C(NCC1(N2CCOCC2)CCCCC1)c1cc(F)c(F)cc1Cl`, inactive: 1.52%. With `COc1cc(OC)c(C(=O)NCC2(N(C)C)CCCCC2)cc1OC` the figure was inactive: 2.88%; with `CC(C)c1ccc(NC2CCN(C(=O)OC(C)(C)C)CC2)cc1`, inactive: 27.1%. As for `CN(C)c1cccc(C(=O)NCC2(N3CCCCC3)CCCCC2)c1`, the inhibition was inactive: -6.5%. Regarding `COc1ccc(CN(CCCl)CCCl)cc1Cl`, the inhibition was inactive: -7.85%. The result for `COc1ccc(Cl)cc1C(=O)NCC1(N2CCOCC2)CCCCC1` reads inactive: -4.16%. The result for `O=C(OC1CN2CCC1CC2)C1c2ccccc2Oc2ccccc21` (stereo not drawn) reads inactive: 0.68%. Consider `N#CC1(Nc2ccccc2)CCN(Cc2ccccc2)CC1`, for which the inhibition is inactive: -18.6%. With `O=C(NCC1(N2CCCCC2)CCCCC1)c1ccc(Cl)s1` the figure was inactive: -3.54%; with `CCOC(=O)N1CCC(Nc2ccc(OC)cc2)CC1`, inactive: -3.35%. The result for `Cc1cc(C)cc(N(C(=O)c2ccccc2)C2CCN(C(=O)OC(C)(C)C)CC2)c1` reads inactive: -0.69%; that for `O=C(NCC1(N2CCCCC2)CCCCC1)c1ccc(Cl)nc1`, inactive: -2.45%. Turning to `O=C(NCC1(N2CCOCC2)CCCCC1)c1cc2ccccc2o1`, the inhibition was inactive: -12.2%. Take `Cc1cccc(NC2(C#N)CCN(Cc3ccccc3)CC2)c1`: the inhibition is inactive: -9.36%. With `CSc1ccccc1C(=O)NCC1(N2CCCCC2)CCCCC1` the figure was inactive: 4.51%.

Consider `COc1ccc(C(=O)NCC2(N3CCCCC3)CCCCC2)c(OC)c1OC`, for which the inhibition is inactive: -8.75%. On to `CC(C)(C)OC(=O)N1CCC(N(C(=O)c2ccccc2)c2ccc(F)cc2)CC1`, for which the inhibition was inactive: -1.31%. With `COc1ccc(C(=O)NCC2(N3CCCCC3)CCCCC2)cc1` the figure was inactive: -2.5%; with `O=C(NCC1(N2CCCCC2)CCCCC1)c1cccs1`, inactive: 7.94%; with `O=C(NCC1(N2CCCCC2)CCCCC1)c1ccc(=O)[nH]c1`, inactive: -6.05%. With `COc1cc(C(=O)NCC2(N(C)C)CCCCC2)ccc1OC(F)F` the figure was inactive: -2.45%; with `CCOC(=O)N1CCC(Nc2cccc(C)c2)CC1`, inactive: 15%. With `COc1ccc(NC2CCN(CCc3ccccc3)CC2)c(OC)c1` the figure was inactive: 24.2%; with `CCOC(=O)N1CCC(Nc2ccc(F)cc2)CC1`, inactive: -0.77%. With `O=C(NCC1(N2CCCCC2)CCCCC1)c1ccc(F)cc1`, the inhibition was inactive: -3.16%. In the case of `O=P1(N(CCCl)CCCl)SCCCS1`, the inhibition is inactive: -8.68%. The result for `CCCCOc1ccc(C(=O)NCC2(N3CCOCC3)CCCCC2)cc1` reads inactive: -9.09%; that for `O=C1CCN(Cc2ccccc2)CC1`, inactive: -17.8%; that for `CCOc1ccc(C)cc1CN(CCCl)CCCl`, inactive: -8.76%. Regarding `Cn1c(=O)[nH]cc(N(CCCl)CCCl)c1=O`, the inhibition is inactive: -3%.

For `CN(C)c1ccc(C(=O)NCC2(N3CCCCC3)CCCCC2)cc1`, the inhibition was inactive: -0.62%. With `O=C(NCC1(N2CCCCC2)CCCCC1)c1ccco1` the figure was inactive: -2.5%. The result for `CCN1CCC(Nc2cccc(F)c2)CC1` reads inactive: -3.11%. With `Cc1ccccc1NC1(C#N)CCN(Cc2ccccc2)CC1` the figure was inactive: -3.7%. For the molecule `Fc1ccccc1NC1CCN(Cc2ccccc2)CC1`, the inhibition is inactive: -13.2%. The result for `Cc1ccc(C(=O)NCC2(N3CCCCC3)CCCCC2)o1` reads inactive: 4.76%. Regarding `Cc1ccc(NC2(C#N)CCN(Cc3ccccc3)CC2)cc1`, the inhibition was inactive: -6.39%. For the molecule `CC(=O)N(c1ccccc1)C1CCNCC1`, the inhibition was inactive: -9.83%. For the molecule `COc1cc(OC)cc(C(=O)NCC2(N3CCCCC3)CCCCC2)c1`, the inhibition was inactive: -4.49%. The result for `CN1CCC(Nc2ccc(Cl)cc2)CC1` reads inactive: -18.2%; that for `COc1cc(OC)cc(C(=O)NCC2(N3CCOCC3)CCCCC2)c1`, inactive: -8.34%; that for `COc1cccc(C(=O)N(c2cc(C)cc(C)c2)C2CCN(C(=O)OC(C)(C)C)CC2)c1`, inactive: -5.24%. With `O=C(O)C1(Nc2ccccc2)CCN(Cc2ccccc2)CC1` the figure was inactive: 3.03%; with `CC(C)(C)OC(=O)N1CCC(Nc2ccccc2)CC1`, inactive: -2.89%; with `CCCOc1ccc(C(=O)NCC2(N(C)C)CCCCC2)cc1`, inactive: -1.45%.

In the case of `CN1CCC(Nc2ccc(F)c(Cl)c2)CC1`, the inhibition was inactive: -9.47%. The result for `CCOc1ncccc1C(=O)NCC1(N2CCOCC2)CCCCC1` reads inactive: -2.43%; that for `O=C(OC1CN2CCC1CC2)C1c2ccccc2C=Cc2ccccc21` (stereo not drawn), inactive: -2.62%.

For `CCc1cc(C(=O)NCC2(N3CCCCC3)CCCCC2)sc1C`, the inhibition is inactive: 0.57%. On to `CCOC(=O)N1CCC(Nc2ccc(C)cc2)CC1`, for which the inhibition is inactive: 2.11%. Take `COc1ccc(C(=O)NCC2(N3CCOCC3)CCCCC2)cc1OC`: the inhibition was inactive: 0.64%. With `COc1cc(C(=O)NCC2(N3CCOCC3)CCCCC2)cc(OC)c1C` the figure was inactive: -7.22%; with `O=C(NCC1(N2CCOCC2)CCCCC1)c1cc(Br)ccc1Cl`, inactive: 4.18%. The result for `CN(C)C1(CNC(=O)c2cccc(C#N)c2)CCCCC1` reads inactive: 3.73%; that for `CCCN1CCC(Nc2cc(OC)cc(OC)c2)CC1`, inactive: 0.83%. With `Cc1cc(N(CCCl)CCCl)ccc1C=O` the figure was inactive: -14.7%; with `c1ccc(CN2CCC(Nc3ccccc3)CC2)cc1`, inactive: 1.07%; with `N#Cc1ccc(C(=O)NCC2(N3CCCCC3)CCCCC2)cc1`, inactive: -6.14%.

In the case of `CC(C)(C)OC(=O)N1CCC(N(C(=O)c2ccccc2)c2ccc(Cl)cc2)CC1`, the inhibition is inactive: 4.24%.
